The results in this text go back to article PMC4738285, “A novel Hsp70 inhibitor prevents cell intoxication with the actin ADP-ribosylating Clostridium perfringens iota toxin” (Scientific Reports, 2016).

Chains of the proteins cited; added tags and fusions are not shown.
UniProt P0DMV8, whole entry, looked up: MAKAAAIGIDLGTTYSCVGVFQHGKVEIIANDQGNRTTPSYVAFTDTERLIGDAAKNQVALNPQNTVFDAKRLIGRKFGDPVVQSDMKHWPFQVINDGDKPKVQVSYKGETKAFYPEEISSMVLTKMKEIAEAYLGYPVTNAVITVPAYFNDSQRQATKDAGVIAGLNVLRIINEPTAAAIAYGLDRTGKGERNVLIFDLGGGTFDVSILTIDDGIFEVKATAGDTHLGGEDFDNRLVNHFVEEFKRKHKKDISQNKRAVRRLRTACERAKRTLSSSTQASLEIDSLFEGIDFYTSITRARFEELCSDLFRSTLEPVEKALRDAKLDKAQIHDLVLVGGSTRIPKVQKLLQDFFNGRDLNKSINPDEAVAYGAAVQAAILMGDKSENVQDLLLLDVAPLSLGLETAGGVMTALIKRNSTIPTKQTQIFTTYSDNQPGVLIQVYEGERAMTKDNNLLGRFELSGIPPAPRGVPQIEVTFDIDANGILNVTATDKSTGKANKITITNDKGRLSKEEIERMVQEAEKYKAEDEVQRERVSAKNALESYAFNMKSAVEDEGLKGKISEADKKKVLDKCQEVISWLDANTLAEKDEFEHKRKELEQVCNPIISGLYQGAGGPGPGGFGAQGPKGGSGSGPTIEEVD

Structures are written as SMILES.

For this experiment, the target named is Hsp70 (Homo sapiens, UniProt P0DMV8). The experiment can be described thus: Hsp70-assisted refolding of GdmCl-denatured firefly luciferase. The experiment is classed as biochemical. Particulars: in words.

For `CSc1ccc2c[n+]3ccccc3cc2c1`, the “inhibition of the protein folding helper activity of Hsp70” value is reported as “did not significantly inhibit”.
